# Certain results were filed several times, with different values. They are shown here; other results are not. The source may hold further records. Values that stand side by side differ for a reason that is not stated; some may be repeats, others may stem from another dose, organism or construct than stated.
# Chains of the proteins cited; added tags and fusions are not shown.
# UniProt P20083, whole entry: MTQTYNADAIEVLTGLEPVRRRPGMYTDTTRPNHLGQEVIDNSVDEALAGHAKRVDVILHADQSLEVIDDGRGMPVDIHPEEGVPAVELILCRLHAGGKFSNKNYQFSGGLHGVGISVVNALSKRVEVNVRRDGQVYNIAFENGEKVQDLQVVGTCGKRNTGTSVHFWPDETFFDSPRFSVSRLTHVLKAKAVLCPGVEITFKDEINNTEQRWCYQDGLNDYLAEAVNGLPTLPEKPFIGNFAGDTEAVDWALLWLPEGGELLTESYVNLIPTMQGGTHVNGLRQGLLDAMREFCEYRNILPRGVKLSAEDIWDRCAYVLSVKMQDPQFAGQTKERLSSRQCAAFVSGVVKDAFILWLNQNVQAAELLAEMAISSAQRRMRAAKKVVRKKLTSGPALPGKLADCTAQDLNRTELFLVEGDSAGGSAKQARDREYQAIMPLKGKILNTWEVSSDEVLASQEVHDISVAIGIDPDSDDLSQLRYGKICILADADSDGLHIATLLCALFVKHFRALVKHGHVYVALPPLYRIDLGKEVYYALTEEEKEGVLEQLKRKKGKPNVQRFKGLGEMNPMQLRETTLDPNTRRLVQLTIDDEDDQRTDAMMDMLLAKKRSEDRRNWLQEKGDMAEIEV
# UniProt P0AFI2, whole entry partner: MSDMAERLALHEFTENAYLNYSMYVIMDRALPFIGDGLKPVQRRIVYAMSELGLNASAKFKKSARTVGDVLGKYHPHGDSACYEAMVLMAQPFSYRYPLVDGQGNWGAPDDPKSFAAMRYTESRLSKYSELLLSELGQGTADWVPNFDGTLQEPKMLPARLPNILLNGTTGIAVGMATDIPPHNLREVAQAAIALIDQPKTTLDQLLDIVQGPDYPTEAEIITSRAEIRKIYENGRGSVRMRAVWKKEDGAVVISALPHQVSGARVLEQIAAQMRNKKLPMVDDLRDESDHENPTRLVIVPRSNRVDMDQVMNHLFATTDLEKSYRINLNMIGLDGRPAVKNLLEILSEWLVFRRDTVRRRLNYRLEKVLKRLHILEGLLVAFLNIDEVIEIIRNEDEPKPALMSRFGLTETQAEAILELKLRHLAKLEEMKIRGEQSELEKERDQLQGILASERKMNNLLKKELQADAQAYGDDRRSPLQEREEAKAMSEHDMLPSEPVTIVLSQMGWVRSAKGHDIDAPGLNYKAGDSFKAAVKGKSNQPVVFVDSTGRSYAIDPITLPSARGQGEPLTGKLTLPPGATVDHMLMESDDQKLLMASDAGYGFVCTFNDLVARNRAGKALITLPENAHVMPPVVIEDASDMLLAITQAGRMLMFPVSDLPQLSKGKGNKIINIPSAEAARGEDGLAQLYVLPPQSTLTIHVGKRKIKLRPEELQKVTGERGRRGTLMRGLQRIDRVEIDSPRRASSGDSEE
# Target: E. coli ParE enzyme (Escherichia coli, UniProt P20083)
# Assay: E. coli ParE ATPase enzyme inhibition assay (ProFoldin kit, malachite green)
# Conditions: ATPase activity, mean ± SD (n = 3)
structure (smiles),measurement,value
O=C(CSc1nc2ccccc2s1)Nc1ccc([N+](=O)[O-])cc1 [Compound 24],IC50 against E. coli ParE enzyme,< 1 μg/mL and 0.48 ± 0.03 μg/mL

# Reference: paper PMC8247773, “Benzohydrazide and Phenylacetamide Scaffolds: New Putative ParE Inhibitors” (Frontiers in Bioengineering and Biotechnology, 2021)
